Results of unrelated studies side by side (data: NIAID ChemDB).

All rows: tests in culture; species: Cryptococcus neoformans; measure: MIC

Conditions beyond the fields shown may differ between rows.

SMILES | strain or isolate | read by | result
Oc1ccccc1N=Cc1ccc(O)c(O)c1O | VM-MCMMPI | broth dilution | 11.3 µg/mL
OCc1c(-c2ccc3c(c2)OCO3)sc2ccccc12 | 93/V | - | 25 µg/mL
Cc1ccc(/C=C2\CSc3ccccc3C2=O)cc1 | 93/V | - | 50 µg/mL
CCCCOc1ccccc1N1CCN(CCc2nnn(C(C)C(O)(Cn3cncn3)c3ccc(F)cc3F)n2)CC1 | LA314 | - | 4 µg/mL
COc1ccc(C2Sc3ccccc3C2CO)c(O)c1 | Farwania | - | 25 µg/mL
Oc1ccccc1N=Cc1ccc(F)cc1 | ATCC 28957 | broth dilution | 4 µg/mL
CC[C@@H]([C@H](C)O)n1ncn(-c2ccc(N3CCN(c4ccc(OC[C@@H]5CO[C@@](Cn6cncn6)(c6ccc(F)cc6F)C5)cc4)CC3)cc2)c1=O | N34 | - | 0.063 µg/mL
OCC1c2ccccc2SC1c1cc(Cl)ccc1O | 93/V | - | 25 µg/mL
COc1ccc(/C=C2\COc3ccc(-c4ccccc4)cc3C2=O)cc1 | 25 | - | 25 µg/mL
CCOC(=O)c1c(C)nc(NCCCNc2ccnc3cc(Cl)ccc23)nc1-c1ccccc1 | ATCC 24067 | - | 5.7 µg/mL
COc1cc(NS(=O)(=O)c2ccc(N)cc2)ncn1 | IFM 49722 | - | ≥256 µg/mL
CCC(C)n1ncn(-c2ccc(N3CCN(c4ccc(OC[C@H]5CO[C@](Cn6cncn6)(c6ccc(Cl)cc6Cl)O5)cc4)CC3)cc2)c1=O | A28201 | - | ≤0.007 µg/mL
C=CC[C@@H]1/C=C(/C)C[C@H](C)C[C@H](OC)[C@H]2O[C@@](O)(C(=O)C(=O)N3CCCC[C@H]3C(=O)O[C@H](/C(C)=C/[C@@H]3CC[C@@H](O)[C@H](OC)C3)[C@H](C)[C@@H](O)CC1=O)[C@H](C)C[C@@H]2OC | H99 | - | <0.09 µg/mL
CCCCCOc1ccc(-c2cc(-c3ccc(C(=O)N[C@H]4C[C@@H](O)[C@@H](O)NC(=O)[C@@H]5[C@@H](O)[C@@H](C)CN5C(=O)[C@H]([C@H](O)CC(N)=O)NC(=O)[C@H]([C@H](O)[C@@H](O)c5ccc(O)c(OS(=O)(=O)O)c5)NC(=O)[C@@H]5C[C@@H](O)CN5C(=O)[C@H]([C@@H](C)O)NC4=O)cc3)no2)cc1 | FMR 8398 | - | 64 µg/mL
Oc1ccc(O)c(C=Nc2ccccc2O)c1 | ATCC 62066 | broth dilution | 2.8 µg/mL
OC(Cn1cncn1)(Cn1nnnc1CCN1CCN(c2ccccc2)CC1)c1ccc(F)cc1F | LA314 | - | >16 µg/mL
COc1cc(NS(=O)(=O)c2ccc(N)cc2)nc(OC)n1 | IFM 49722 | - | ≥256 µg/mL
OCC1c2ccccc2SC1c1ccccc1O | 93/V | - | 12.5 µg/mL
C[C@@H](n1cnc2cc(Cl)ccc2c1=O)[C@](O)(Cn1cncn1)c1ccc(F)cc1F | Isolate 114.96 | - | 0.156 µg/mL
C[C@@H](n1ncn(-c2ccc(OCC(F)(F)C(F)F)cc2)c1=O)[C@](O)(Cn1cncn1)c1ccc(F)cc1F | DUMC 114.96 | - | 0.0625 µg/mL
Oc1cccc(C=Nc2ccccc2O)c1 | 28JF | broth dilution | 5.7 µg/mL
Cc1noc(NS(=O)(=O)c2ccc(N)cc2)c1C | IFM 51976 | - | 128 µg/mL
CCC(C)CC(C)CCCCCCCCC(=O)N[C@H]1C[C@@H](O)[C@H](NCCN)NC(=O)[C@@H]2[C@@H](O)CCN2C(=O)[C@H]([C@H](O)CCN)NC(=O)[C@H]([C@H](O)[C@@H](O)c2ccc(O)cc2)NC(=O)[C@@H]2C[C@@H](O)CN2C(=O)[C@H]([C@@H](C)O)NC1=O | B 32287 | broth dilution | 16 µg/mL
COc1cc(O)c2c(c1)C(=O)c1c(cc3c(c1O)-c1c(cc(C)c(C(=O)NCC(=O)O)c1O)[C@H](OC1OC(C)C(N(C)C)C(OC4OCC(O)C(O)C4O)C1O)[C@H]3O)C2=O | D49 | - | 1.6 µg/mL
Cc1cc(NS(=O)(=O)c2ccc(N)cc2)nc(C)n1 | IFM 40216 | - | ≥256 µg/mL
C[C@H]([C@](O)(Cn1cncn1)c1ccc(F)cc1F)S(C)(=O)=O | R715 (AZOLE-R) | - | 9 µM
C[C@@H](c1ncncc1F)[C@](O)(Cn1cncn1)c1ccc(F)cc1F | Clinical isolate (IM 031633) | broth dilution | 0.25 µg/mL
CCCCOc1ccccc1N1CCN(CCc2nnn(CC(O)(Cn3cncn3)c3ccc(F)cc3F)n2)CC1 | LA314 | - | 2 µg/mL
Oc1ccccc1N=Cc1ccccc1 | F-10 | broth dilution | 5.7 µg/mL
O=C1/C(=C/c2ccc(Cl)cc2)COc2ccccc21 | Farwania | - | 6 µg/mL
C[C@H](n1nnc(CCN2CCN(c3ccc(F)cc3)CC2)n1)[C@](O)(Cn1cncn1)c1ccc(F)cc1F | LA314 | - | 2 µg/mL
O=C1/C(=C/c2ccc3c(c2)OCO3)COc2ccc(-c3ccccc3)cc21 | 25 | - | 100 µg/mL
Cn1nc(Cc2ccc(Cl)cc2)c2ccccc2c1=O | Clinical isolate (IM 983036) | broth dilution | ≥250 µg/mL

For reference, 3 entries again:

SMILES | strain or isolate | read by | result
C[C@@H](n1ncn(-c2ccc(OCC(F)(F)C(F)F)cc2)c1=O)[C@](O)(Cn1cncn1)c1ccc(F)cc1F | DUMC 114.96 | - | 0.0625 µg/mL
COc1cc(O)c2c(c1)C(=O)c1c(cc3c(c1O)-c1c(cc(C)c(C(=O)NCC(=O)O)c1O)[C@H](OC1OC(C)C(N(C)C)C(OC4OCC(O)C(O)C4O)C1O)[C@H]3O)C2=O | D49 | - | 1.6 µg/mL
OCC1c2ccccc2SC1c1ccccc1O | 93/V | - | 12.5 µg/mL

An empty or dashed field is not shown.